Compound potency records, mixed from different reports. Data source: NIAID ChemDB in PubChem.

Shared fields: tests in culture; species: Cryptococcus neoformans; endpoint: MIC

a–b is a range or a potency band. Conditions beyond the fields shown may differ between rows.

{"SMILES": "CC(CCC(=O)NCCCNCCCCNCCCN)[C@H]1CCC2C3CC[C@@H]4C[C@H](OS(=O)(=O)O)CC[C@]4(C)C3C[C@H](C)[C@@]21C", "strain or isolate": "90012", "value": "50 µg/mL"}
{"SMILES": "C=C1C(NC(=O)COc2ccccc2)C2SC(C)(C)C(C=O)N12", "value": "50 µg/mL"}
{"SMILES": "CCCCCCCC(Cn1ccnc1)c1ccc(Cl)cc1", "value": "<1 µg/mL"}
{"SMILES": "COC(=O)c1ccc2c(ccn2C)c1O", "value": "50 µg/mL"}
{"SMILES": "CCCC(Cn1ccnc1)c1ccc(F)cc1", "value": "10 µg/mL"}
{"SMILES": "O=c1cc(-c2ccccc2)oc2c1ccc1sccc12", "value": "25 µg/mL"}
{"SMILES": "ONC1=Nc2ccccc2SC(c2ccccc2)C1", "strain or isolate": "IMAT4711", "value": "50 µg/mL"}
{"SMILES": "Clc1ccc(CN(Cc2ccc(-c3ccccc3)cc2)n2ccnc2)c(Cl)c1", "value": "2.5 µM"}
{"SMILES": "CC[C@@H]([C@H](C)O)n1ncn(-c2ccc(N3CCN(c4ccc(OC[C@@H]5CO[C@@](Cn6cncn6)(c6ccc(F)cc6F)C5)cc4)CC3)cc2)c1=O", "strain or isolate": "491 (HIV+)", "value": "0.125 µg/mL"}
{"SMILES": "CN[C@@H]1[C@H](O[C@@H]2OC[C@@H](O)[C@H](O)[C@H]2O)[C@@H](O)[C@H](O[C@H]2c3cc(C)c(C(=O)N[C@H](C)C(=O)O)c(O)c3-c3c(cc4c(c3O)C(=O)c3cc(OC)cc(O)c3C4=O)[C@@H]2O)O[C@@H]1C", "strain or isolate": "IAM 4514", "value": "0.8 µg/mL"}
{"SMILES": "Clc1ccc(C(Cc2ccccc2Cl)Cn2ccnc2)c(Cl)c1", "value": "<1 µg/mL"}
{"SMILES": "CCC(C)CC(C)CCCCCCCCC(=O)N[C@H]1C[C@@H](O)[C@@H](O)NC(=O)[C@@H]2[C@@H](O)CCN2C(=O)[C@H]([C@H](O)CC(N)=O)NC(=O)[C@H]([C@H](O)[C@@H](O)c2ccc(O)cc2)NC(=O)[C@@H]2C[C@@H](O)CN2C(=O)[C@H]([C@@H](C)O)NC1=O", "strain or isolate": "20 isolates", "value": "4 µg/mL"}
{"SMILES": "Cc1ccccc1CC(Cc1ccc(-c2ccccc2)cc1)n1ccnc1", "value": "33 µM"}
{"SMILES": "Cn1ccc2c(O)c(C(=O)/C=C/c3ccccc3)ccc21", "value": "25 µg/mL"}
{"SMILES": "CCc1ccc(C2CC(=NOCc3ccccc3)CC(c3ccc(CC)cc3)N2C)cc1", "value": "50 µg/mL"}
{"SMILES": "C[C@H]1[C@H](O)[C@@H](C)/C=C/C=C/C=C/C=C/C=C/C=C/C=C/[C@H](O[C@@H]2O[C@H](C)[C@@H](O)[C@H](N)[C@@H]2O)C[C@@H]2O[C@](O)(C[C@@H](O)C[C@@H](O)CC[C@H](O)[C@@H](O)C[C@@H](O)CC(=O)O[C@H]1C)C[C@H](O)[C@H]2C(=O)O", "strain or isolate": "3 strains", "value": "0.5–1 µg/mL"}
{"SMILES": "Clc1ccc(C(Cc2ccc(Cl)cc2Cl)Cn2ccnc2)cc1", "value": "<1 µg/mL"}
{"SMILES": "COc1cc(OC)c2c(c1CC=C(C)C)O[C@H](c1c(CC=C(C)C)cc(OC)c(OC)c1CC=C(C)C)[C@@H](O)C2=O", "strain or isolate": "ATCC 32264", "value": ">100 µg/mL"}
{"SMILES": "COc1ccc(-c2cc(=O)c3ccc4c(ccn4C)c3o2)cc1", "value": "50 µg/mL"}
{"SMILES": "COc1cc(O)c2c(c1)C(=O)c1c(cc3c(c1O)-c1c(cc(C)c(C(=O)NC(C)C(=O)O)c1O)[C@H](OC1OC(C)C(N(C)C)C(OC4OCC(O)C(O)C4O)C1O)[C@H]3O)C2=O", "strain or isolate": "CS-01", "value": "1.6 µg/mL"}
{"SMILES": "CC(C)C(=O)CCC[C@H]1CO[C@@](Cn2cccc2)(c2ccc(F)cc2F)C1", "strain or isolate": "B42419", "value": ">100 µg/mL"}
{"SMILES": "COCCOCCOCCOCCOCCOCCOCCOCCOCCOCCOCCOCCOCCOCCOCCNC(=O)[C@H]1[C@@H]2C[C@@H](O[C@@H]3O[C@H](C)[C@@H](O)[C@H](N)[C@@H]3O)/C=C/C=C/C=C/C=C/C=C/C=C/C=C/[C@H](C)[C@@H](O)[C@H](C)[C@H](C)OC(=O)C[C@H](O)C[C@H](O)[C@@H](O)CC[C@H](O)C[C@H](O)C[C@](O)(C[C@@H]1O)O2", "strain or isolate": "3 strains", "value": "0.8–6.4 µg/mL"}
{"SMILES": "CCC(C)CC(C)CCCCCCCCC(=O)N[C@H]1C[C@@H](O)[C@H](NCCN)NC(=O)[C@@H]2[C@@H](O)CCN2C(=O)[C@H]([C@H](O)CCN)NC(=O)[C@H]([C@H](O)[C@@H](O)c2ccc(O)cc2)NC(=O)[C@@H]2C[C@@H](O)CN2C(=O)[C@H]([C@@H](C)O)NC1=O", "strain or isolate": "887.002", "value": ">2 µg/mL"}
{"SMILES": "CC(=O)ONC1=Nc2cc(Cl)ccc2SC1", "strain or isolate": "IMAT4711", "value": "10 µg/mL"}
{"SMILES": "Fc1ccc(CC(Cc2ccc(-c3ccccc3)cc2)n2ccnc2)c(F)c1", "value": "5.5 µM"}
{"SMILES": "CC(C)C(=O)CCC[C@H]1CO[C@@](Cn2ccnc2)(c2ccc(F)cc2F)C1", "strain or isolate": "A.34144", "value": "1.56 µg/mL"}
{"SMILES": "COC(=O)NC1=Nc2ccc3ccccc3c2SC1", "strain or isolate": "IMAT4711", "value": "50 µg/mL"}
{"SMILES": "N=C(N)c1ccc(OCCCC2CCN(CCCOc3ccc(C(=N)N)cc3)CC2)cc1", "strain or isolate": "ATCC90112", "value": "0.0625 µg/mL"}
{"SMILES": "COc1cc(CC=C(C)C)c([C@H]2Oc3c(CC=C(C)C)c(OC)cc(O)c3C(=O)[C@@H]2O)c(CC=C(C)C)c1O", "strain or isolate": "ATCC 32264", "value": ">100 µg/mL"}
{"SMILES": "O=C(ONC1=Nc2cc(Cl)ccc2SCC1)c1ccccc1", "strain or isolate": "IMAT4711", "value": "50 µg/mL"}
{"SMILES": "CC(=O)OCC1=C(C(=O)O)N2C(=O)C(NC(=O)CSC(=S)N(C)c3ccccc3)C2SC1", "value": ">250 µg/mL"}
{"SMILES": "COC1CC2CCC(C)C(O)(O2)C(=O)C(=O)N2CCCCC2C(=O)OC(C(C)CC2CCC(O)C(OC)C2)CC(=O)C(C)/C=C(\\C)C(O)[C@@](OC)(N(O)C(=O)OCC(C)C)C(=O)C(C)CC(C)/C=C/C=C/C=C/1C", "strain or isolate": "WILD TYPE", "value": ">100 µg/mL"}
{"SMILES": "CC(C)C(=N)CCC=C1CO[C@@](Cn2ccnc2)(c2ccc(F)cc2F)C1", "strain or isolate": "B42419", "value": "25 µg/mL"}
{"SMILES": "ONC1=Nc2cc(Cl)ccc2SC1", "strain or isolate": "IMAT4711", "value": "10 µg/mL"}
{"SMILES": "C[C@H]1[C@H](O)[C@@H](C)/C=C/C=C/C=C/C=C/C=C/C=C/C=C/[C@H](O[C@@H]2O[C@H](C)[C@@H](O)[C@H](N)[C@@H]2O)C[C@@H]2O[C@](O)(C[C@@H](O)C[C@@H](O)CC[C@H](O)[C@@H](O)C[C@@H](O)CC(=O)O[C@H]1C)C[C@H](O)[C@H]2C(=O)O", "strain or isolate": "A28201", "value": "0.25 µg/mL"}
{"SMILES": "CCCCCCCCCCCCCCCC1=N[C@H]1C(=O)OC", "strain or isolate": "var. grubii", "value": "2 µg/mL"}
{"SMILES": "CC(=O)OCC1=C(C(=O)O)N2C(=O)C(NC(=O)CSC(=S)N(C)C)C2SC1", "value": "63 µg/mL"}
{"SMILES": "COc1c(-c2ccccc2)oc2c(ccc3sccc32)c1=O", "value": "12.5 µg/mL"}
{"SMILES": "CC(=O)OCC1=C(C(=O)O)N2C(=O)C(NC(=O)CSC(=S)N3CCCC3)C2SC1", "value": "250 µg/mL"}
{"SMILES": "CCCCCCCCCCCCC/C=C\\C1=NC1C(=O)OC", "strain or isolate": "var. grubii", "value": "1–2 µg/mL"}
{"SMILES": "N[C@H]1CCC[C@H]1C(=O)O", "strain or isolate": "D49", "value": ">20 µg/mL"}
{"SMILES": "CCCCCCCCCCCCC/C=C\\C1=N[C@H]1C(=O)OC", "strain or isolate": "var. gatti", "value": "2 µg/mL"}
{"SMILES": "CCCCC(Cn1ccnc1)c1ccc(Cl)cc1", "value": "<1 µg/mL"}
{"SMILES": "CCC(C)CC(C)CCCCCCCCC(=O)N[C@H]1C[C@@H](O)[C@@H](OCCN)NC(=O)[C@@H]2C[C@@H](O)CN2C(=O)[C@H]([C@H](O)CC(N)=O)NC(=O)[C@H]([C@H](O)[C@@H](O)c2ccc(O)cc2)NC(=O)[C@@H]2C[C@@H](O)CN2C(=O)[C@H]([C@@H](C)O)NC1=O", "strain or isolate": "20 isolates", "value": "≤0.06 µg/mL"}
{"SMILES": "Clc1ccc(CC(Cn2ccnc2)c2ccccc2Br)cc1", "value": "<1 µg/mL"}
{"SMILES": "COC1CC2CCC(C)C(O)(O2)C(=O)C(=O)N2CCCCC2C(=O)OC(C(C)CC2CCC(O)C(OC)C2)CC(=O)C(C)/C=C(\\C)[C@@](O)(c2ccc(C)s2)C(OC)C(=O)C(C)CC(C)/C=C/C=C/C=C/1C", "strain or isolate": "FRR1", "value": ">100 µg/mL"}
{"SMILES": "COC(=O)[C@@H]1N=C1/C=C\\CCCCCCCCCCCCC(C)(C)C", "strain or isolate": "var. grubii", "value": "8–10 µg/mL"}
{"SMILES": "CCCCC(Cn1ccnc1)c1ccc(Br)cc1Br", "value": "<1 µg/mL"}
{"SMILES": "Cc1ccc(CC(Cc2ccc(-c3ccccc3)cc2)n2ccnc2)cc1", "value": "33 µM"}
{"SMILES": "CC(C)C(=N)CCC[C@H]1CO[C@@](Cn2ccnc2)(c2ccc(F)cc2F)C1", "strain or isolate": "B42419", "value": "100 µg/mL"}
{"SMILES": "C=C1C(NC(=O)C(C)Oc2ccccc2)C2SC(C)(C)C(C(=O)[S-])N12", "value": "250 µg/mL"}
{"SMILES": "Clc1ccccc1C(Cc1c(Cl)cccc1Cl)Cn1ccnc1", "value": "10 µg/mL"}
{"SMILES": "Nc1[nH]c(=O)ncc1F", "strain or isolate": "H79", "value": "0.25 µg/mL"}
{"SMILES": "CCCCCCCC(Cn1ccnc1)c1ccc(F)cc1", "value": "<1 µg/mL"}
{"SMILES": "ONC1=Nc2cnc3ccccc3c2SC1", "strain or isolate": "IMAT4711", "value": "25 µg/mL"}
{"SMILES": "CC(=O)OCC1=C(C(=O)O)N2C(=O)C(NC(=O)CC(=S)Nc3ccccc3)C2SC1", "value": "8 µg/mL"}
{"SMILES": "Clc1ccc(CC(Cc2ccc(-c3ccccc3)cc2)n2ccnc2)cc1", "value": "5.5 µM"}
{"SMILES": "C=CC[C@@H]1/C=C(/C)C[C@H](C)C[C@H](OC)[C@H]2O[C@@](O)(C(=O)C(=O)N3CCCC[C@H]3C(=O)O[C@H](/C(C)=C/[C@@H]3CC[C@@H](O)[C@H](OC)C3)[C@H](C)[C@@H](O)CC1=O)[C@H](C)C[C@@H]2OC", "strain or isolate": "C20F1", "value": "100 µg/mL"}
{"SMILES": "CCCCCC(Cn1ccnc1)c1ccc(Cl)cc1Cl", "value": "10 µg/mL"}
{"SMILES": "CC(C)C(=O)CCC[C@@H]1CO[C@@](Cn2ccnc2)(c2ccc(F)cc2F)C1", "strain or isolate": "B42419", "value": "0.78 µg/mL"}
{"SMILES": "CC(C)=C[C@H]1C[C@](C)(O)C2C3CCC4[C@@]5(C)CCC[C@](C)(O[C@H]6OC[C@H](O)[C@H](OC7O[C@H](CO)[C@@H](O)[C@H](O)[C@H]7O)[C@H]6O[C@H]6C[C@H](CO)[C@@H](O)[C@@H]6O)C5CC[C@@]4(C)[C@@]34CO[C@@]2(C4)O1", "value": "50 µg/mL"}
{"SMILES": "CC1CC(NOC(=O)c2ccccc2)=Nc2ccccc2S1", "strain or isolate": "IMAT4711", "value": "50 µg/mL"}
{"SMILES": "CCCCC/C=C\\C/C=C\\CCCCCCCC(=O)N[C@H]1C[C@@H](O)[C@@H](O)NC(=O)[C@@H]2[C@@H](O)[C@@H](C)CN2C(=O)[C@H]([C@H](C)O)NC(=O)[C@H]([C@H](O)[C@@H](O)c2ccc(O)cc2)NC(=O)[C@@H]2C[C@@H](O)CN2C(=O)[C@H]([C@H](C)O)NC1=O", "value": ">20 µg/mL"}
{"SMILES": "CCCCCCC(Cn1ccnc1)c1ccccc1Cl", "value": "<1 µg/mL"}